We go through 98 compounds from PubChem BioAssay AID1159583 (ICCB-Longwood Screening Facility, Harvard Medical School, 2016).

The list shows a part of the results, in another mix than the full data. Some structures show a salt or complex split into parts, the way the source records it. Active and inactive are the calls of the source. Cut-off read from the data, not from the text of the source: active = fluorescence inhibition mostly above about 23% (no sharp cut-off); inactive = mostly below about 17%.

This assay is described as follows: hypoxia reporter signal reduction in M. tuberculosis – fluorescence, absorbance growth readout, primary screen (AID 1159583). The following applies: M. tuberculosis hypoxia-regulated fluorescent reporter, active compounds read high, concentration not given here.
In the case of `O=[N+]([O-])c1cc([N+](=O)[O-])c(NCC2CCS(=O)(=O)C2)c([N+](=O)[O-])c1` (stereo not drawn), the fluorescence inhibition is inactive: -3.91%.
Consider `O=[As](O)(c1ccccc1)c1ccc(O)cc1`, for which the fluorescence inhibition was inactive: 45.1%.
With `O=P(Nc1nc2ccccc2s1)(c1ccccc1)c1ccccc1` the figure was inactive: 13.8%.
With `CCN(C(=NP(=O)(N1CCOCC1)N1CCOCC1)N1CCOCC1)c1ccc(OC)cc1` the figure was inactive: -5.78%; with `COc1ccc(NP(C)(=O)Oc2ccccc2OC)cc1` (stereo not drawn), inactive: 0.994%; with `COc1ccc(N)c([N+](=O)[O-])c1[N+](=O)[O-]`, inactive: -2.85%.
With `CC(C)C=NN=C(N)N[N+](=O)[O-]` the figure was inactive: 0.365%.
As to `COc1ccc(OP(C)(=O)Nc2cccc(Br)c2)cc1` (stereo not drawn), the fluorescence inhibition was inactive: 18%.
Take `CN(C)C1(CNC(=O)c2ccc(Cl)c(S(N)(=O)=O)c2)CCCCC1`: the fluorescence inhibition is inactive: 8.83%.
For `O=P(Nc1ccccn1)(c1ccc(Br)cc1)c1ccc(Br)cc1`, the fluorescence inhibition was inactive: 0.508%.
For the compound `C=CCN1CCN(CCOC(=O)C(O)(c2ccccc2)c2ccccc2)CC1`, the fluorescence inhibition was inactive: 2.61%.
With `CCOP(C)(=S)SCC(=O)NC(C)(CC)C(=O)O` (stereo not drawn) the figure was inactive: -4.85%.
With `CP(=O)(Nc1ccc(SC(F)(F)F)cc1)Oc1ccc(F)cc1` (stereo not drawn) the figure was inactive: -5.17%; with `CCNC(=S)N=C(N)N[N+](=O)[O-]`, inactive: -1.56%.
Next, `O=P(Nc1nccs1)(c1ccccc1)c1ccccc1`: inactive: 2.32%.
Take `CC(C)C(=O)NC(Sc1ccccc1)C(Cl)(Cl)Cl` (stereo not drawn): the fluorescence inhibition is inactive: -1.56%.
For the compound `CC1(CBr)Cn2c(nc3ccccc3c2=O)S1` (stereo not drawn), the fluorescence inhibition is inactive: 12.2%.
With `O=[As](O)(c1ccccc1Br)c1ccccc1Br` the figure was inactive: 11.8%; with `COc1ccccc1CNC(=O)COC(=O)C(O)(c1ccccc1)c1ccccc1`, inactive: 5.3%.
Next, `O=[N+]([O-])c1cc([N+](=O)[O-])c(-c2cnn(-c3ccccc3)c2)c([N+](=O)[O-])c1`: inactive: 9.57%.
`CC(C)(C)C(=O)NC(Sc1ncccn1)C(Cl)(Cl)Cl` (stereo not drawn): the fluorescence inhibition is inactive: 6.67%.
With `Clc1n[nH]nc1-c1nn[nH][15n]1` the figure was inactive: 1.78%; with `CCOP(=O)(Nc1ccc(C)cn1)OCC`, inactive: 6.05%.
Next, `O=[N+]([O-])c1cc([N+](=O)[O-])c(-n2nnc3ccccc32)c([N+](=O)[O-])c1`: inactive: 0.957%; `O=P1(Nc2ccccn2)COc2ccccc2OC1`: inactive: -83.1%.
With `O=[As](O)(c1cccs1)c1cccs1` the figure was inactive: 20.8%; with `NS(=O)(=O)c1cccc(NC(=O)COC(=O)C(O)(c2ccccc2)c2ccccc2)c1`, inactive: -0.292%; with `O=P1(Nc2ccc(Br)cn2)COc2ccccc2OC1`, inactive: 4.94%.
Take `CCCOc1ccc(NP(C)(=O)Oc2ccc(Cl)cc2)cc1` (stereo not drawn): the fluorescence inhibition is inactive: -4.29%.
With `CP(=O)(Nc1ccc(SC(F)(F)F)cc1)Oc1ccccc1` (stereo not drawn), the fluorescence inhibition was inactive: 8.2%.
Turning to `Nc1cccc([As](=O)(O)c2ccccc2)c1`, the fluorescence inhibition is inactive: 15.4%.
With `CN1CCCCC1COC(=O)C1(O)c2ccccc2CCc2ccccc21` (stereo not drawn) the figure was inactive: 0.457%.
With `COc1ccccc1OP(C)(=O)Nc1c(C)cccc1C` (stereo not drawn) the figure was inactive: 1.4%; with `O=P1(Nc2ncccn2)COc2ccccc2OC1`, inactive: -2.3%; with `CCCC1OP(=O)(Nc2ccccc2)OCC1CC` (stereo not drawn), inactive: 26.1%.
With `O=C(/C=C/c1ccccc1)OC1CN2CCC1CC2` (stereo not drawn) the figure was inactive: 14%; with `CCOC(=O)C(CC)C1=NC(C)(C)Cc2ccccc21.O=[N+]([O-])c1cc([N+](=O)[O-])c(O)c([N+](=O)[O-])c1` (stereo not drawn), inactive: -1.61%; with `CN(C)C1(CNC(=O)c2ccc(S(C)(=O)=O)cc2)CCCCC1`, inactive: -0.77%.
On to `O=[N+]([O-])c1cc([N+](=O)[O-])c(Nc2nnnn2CCO)c([N+](=O)[O-])c1`, for which the fluorescence inhibition was inactive: 21.3%.
Next, `COc1cc(C2NCCC3(OCCO3)C2(C)C)cc(OC)c1OC.O=[N+]([O-])c1cc([N+](=O)[O-])c(O)c([N+](=O)[O-])c1` (stereo not drawn): inactive: -2.33%; `Cc1ccc(C(=O)OC2CN3CCC2CC3)cc1` (stereo not drawn): inactive: 11.1%.
Next, `CC1CCC(C(C)C)C(OP(=O)(Nc2ccccn2)c2ccccc2)C1` (stereo not drawn): inactive: 13.6%; `Cc1nn(-c2ccccc2)c2c1P(=O)(N1CCOCC1)N(C)C(c1ccccc1)=N2` (stereo not drawn): inactive: 4.87%.
Next, `CC1=NCCc2c1[nH]c1ccccc21.O=[N+]([O-])c1cc([N+](=O)[O-])c(O)c([N+](=O)[O-])c1`: inactive: 2.13%; `O=[N+]([O-])c1ccc2c(c1)nnn2O`: inactive: -2.92%.
`CN(C)C(=O)c1cc([N+](=O)[O-])cc2c1-c1c(cc([N+](=O)[O-])cc1[N+](=O)[O-])C2=O`: the fluorescence inhibition is inactive: 14%.
Consider `CCOP1(=S)c2c(C)nn(CCC#N)c2N=C(c2ccc(F)cc2)N1C` (stereo not drawn), for which the fluorescence inhibition was inactive: 1.35%.
Next, `N#CCCN(C(=O)COC(=O)C(O)(c1ccccc1)c1ccccc1)c1ccc(F)cc1`: inactive: 1.7%; `Cc1ccc(NC(=NP(=O)(N2CCOCC2)N2CCOCC2)N2CCOCC2)cc1`: inactive: -2.36%.
Next, `NC(=O)Nc1ccc([As](=O)(O)O)cc1`: inactive: 3.47%.
For the compound `O=C(O)COc1ccc([As](=O)(O)O)cc1[N+](=O)[O-]`, the fluorescence inhibition was inactive: 3.17%.
As to `Nc1ccccc1[As](=O)(O)c1ccccc1`, the fluorescence inhibition is inactive: -5.07%.
Next, `O=P(Nc1nccs1)(Oc1ccccc1)Oc1ccccc1`: inactive: -3.69%.
`O=P(Nc1nccs1)(c1ccccc1)c1nc2ccccc2s1` (stereo not drawn): the fluorescence inhibition was inactive: 0.833%.
In the case of `O=C(O)c1cccc(Nc2c([N+](=O)[O-])cc([N+](=O)[O-])cc2[N+](=O)[O-])c1`, the fluorescence inhibition is inactive: 19.1%.
As for `CCOP1(=S)c2c(C)nn(CCC#N)c2N=C(c2ccccc2F)N1C` (stereo not drawn), the fluorescence inhibition is inactive: -4.52%.
With `CCOP(=O)(Nc1cccc2ccccc12)OCC` the figure was inactive: 6.81%; with `CCCOP(=S)(Nc1nc(N)cc(=O)[nH]1)OCCC`, inactive: 11.3%.
Regarding `Cc1ccc(NCCc2c([N+](=O)[O-])cc([N+](=O)[O-])cc2[N+](=O)[O-])cc1`, the fluorescence inhibition is inactive: 0.606%.
With `Cc1cc(C)cc(OP(C)(=O)Nc2ccccn2)c1` (stereo not drawn), the fluorescence inhibition is inactive: 6.57%.
As for `CP(=O)(Nc1cccc(Br)c1)Oc1ccccc1` (stereo not drawn), the fluorescence inhibition is inactive: 7.44%.
Next, `CC1C=CCP(=O)(Oc2ccccc2)O1` (stereo not drawn): inactive: -1.93%; `CCOC(=O)c1ccc(NP(C)(=O)Oc2cc(C)cc(C)c2)cc1` (stereo not drawn): inactive: 3.2%.
With `Cc1cc(C)cc(OP(C)(=O)Nc2ccc(C)cc2C)c1` (stereo not drawn), the fluorescence inhibition is inactive: 0.465%.
Turning to `O=[As](O)(c1cccc(O)c1)c1cccc(O)c1`, the fluorescence inhibition is inactive: 4.4%.
Turning to `COc1ccccc1OP(C)(=O)Nc1cccc(Br)c1` (stereo not drawn), the fluorescence inhibition is inactive: 10.1%.
Next, `CS(=O)(=O)c1ccc(Cl)c(NC(=O)COC(=O)C(O)(c2ccccc2)c2ccccc2)c1`: inactive: 15%; `O=[As](O)(O)c1cccnc1`: inactive: 6.79%; `COc1cc(C(=O)NCC2(N3CCOCC3)CCCCC2)cc(Cl)c1OC(C)C`: inactive: -1.14%.
For the compound `O=C(OC1CN2CCC1CC2)c1ccc(Cl)cc1` (stereo not drawn), the fluorescence inhibition is inactive: -2.79%.
Next, `CCC(CO)(C(=O)OC1CN2CCC1CC2)c1ccccc1` (stereo not drawn): inactive: 2.82%; `COc1cc(I)ccc1[As](=O)(O)O`: inactive: 11.2%.
`COc1ccc2nc(NP(=O)(c3ccccc3)c3ccccc3)sc2c1`: the fluorescence inhibition is inactive: 9.18%.
Next, `O=P1(N(CCCl)CCCl)Nc2ccccc2N1`: inactive: 11.7%; `Cc1cc(=O)[nH]c(N[N+](=O)[O-])n1`: inactive: -3.26%; `CCN(CC)CCCOC(=O)C(O)(c1ccccc1)c1ccccc1`: inactive: 6.29%.
In the case of `Cc1c2c(nc3ccccc13)SC(C(Cl)Cl)C2` (stereo not drawn), the fluorescence inhibition was inactive: 2%.
Next, `Cc1cc(C)cc(OP(C)(N)=O)c1` (stereo not drawn): inactive: 6.68%; `COc1ccc(OP(C)(=O)Nc2cccc(F)c2)cc1` (stereo not drawn): inactive: 6.58%.
Turning to `O=[N+]([O-])c1cc([N+](=O)[O-])c(-c2ccn[nH]2)s1`, the fluorescence inhibition was inactive: 40.9%.
Turning to `CC(C)NC(=O)NP(=O)(Oc1ccccc1)Oc1ccccc1`, the fluorescence inhibition is inactive: -0.864%.
Next, `COc1ccccc1OP(C)(=O)Nc1cc(Cl)ccc1C` (stereo not drawn): inactive: 12.8%; `O=C(OC1CN2CCC1CC2)c1cccc2[nH]cnc12` (stereo not drawn): inactive: 19.3%.
Turning to `Cc1ccc(NP(C)(=O)Oc2ccccc2)c(C)c1` (stereo not drawn), the fluorescence inhibition is inactive: 6.44%.
In the case of `CC(C)c1ccc(OP(=O)(Nc2ccccn2)Oc2ccccc2F)cc1` (stereo not drawn), the fluorescence inhibition is inactive: 9.08%.
Next, `COc1ccccc1OP(C)(=O)Nc1ccc(C)cc1` (stereo not drawn): inactive: 6.87%; `ClCCSc1nnc(-c2cccnc2)o1`: inactive: 20.3%.
Next, `COc1ccc2c(c1O)-c1c(O)c(OC)cc3c1C(C2)[N+](C)(C)CC3.O=[N+]([O-])c1cc([N+](=O)[O-])c([O-])c([N+](=O)[O-])c1[O-]` (stereo not drawn): inactive: 7.15%.
Next, `CCOC(=O)c1ccc(NP(C)(=O)Oc2ccccc2)cc1` (stereo not drawn): inactive: -2.86%.
As for `O=[N+]([O-])c1ccc2c(c1)C=Nc1ccccc1O2`, the fluorescence inhibition is inactive: 11.6%.
Next, `Cc1ccc2nc3c(c(C)c2c1)CC(C(Cl)Cl)S3` (stereo not drawn): inactive: 3.8%; `Cc1cccc(C)c1OP(C)(N)=O` (stereo not drawn): inactive: 0.989%; `Cc1ccc(OP(=O)(Nc2ccc([N+](=O)[O-])cn2)Oc2ccc(C)cc2)cc1`: inactive: 11.5%.
With `CC(C)(C)c1ccc(OP(C)(=O)Nc2ccc(SC(F)(F)F)cc2)cc1` (stereo not drawn) the figure was inactive: -5.38%.
Next, `O=[N+]([O-])c1ccc(-c2cc([N+](=O)[O-])c(O)c([N+](=O)[O-])c2)cc1`: inactive: 4.22%.
In the case of `COc1cc(C(=O)NCC2(N3CCOCC3)CCCCC2)ccc1OCC(C)C`, the fluorescence inhibition is inactive: 9.09%.
Turning to `O=[As](O)(c1ccc(O)cc1)c1ccccc1O`, the fluorescence inhibition is inactive: 65.5%.
Next, `C[As](=O)(O)c1cccc(C(=O)O)c1`: inactive: 1.58%.
